This is an account of results in publication PMC3145626.

The exact form of at least one protein or probe is not confirmed. For some assays here: At least one verdict was read from the data and is not stated in words by the source. For some assays here: Tags and fusion partners may be left off the protein sequences shown.

Data set [1] deals with T1, Fur (Escherichia coli K12) (UniProt P0A9A9).
T1 sequence (looked up, limits assumed): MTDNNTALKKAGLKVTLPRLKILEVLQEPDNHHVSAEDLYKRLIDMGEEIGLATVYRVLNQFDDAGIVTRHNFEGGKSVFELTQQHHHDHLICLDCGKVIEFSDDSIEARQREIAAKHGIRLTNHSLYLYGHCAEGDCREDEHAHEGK
The experiment in a line: EMSA. The conditions noted are these: EMSA: 10 mM Tris-borate pH 7.5, 40 mM KCl, 5% glycerol, 1 mM MgCl2, 100 uM MnCl2, 2 mM DTT, 100 ug/ml BSA, 1 ug/ml salmon sperm DNA, 2 nM probe, recombinant protein, label: 32P (alpha-32P dGTP in PCR), probe letters rebuilt from the primers and the genome. (A gel shift assay detects complexes by their altered migration in electrophoresis.)

For data set [2], the system named is RNA polymerase holoenzyme saturated with sigma70 (Esigma70). As to the kind of experiment: EMSA. The conditions noted are these: no Fur, 0.5-2 units RNAP; EMSA: 10 mM Tris-borate pH 7.5, 40 mM KCl, 5% glycerol, 1 mM MgCl2, 100 uM MnCl2, 2 mM DTT, 100 ug/ml BSA, 1 ug/ml salmon sperm DNA, 2 nM probe; commercial protein; label: 32P (alpha-32P dGTP in PCR); probe letters rebuilt from the primers and the genome.

Data set [3] addresses T1, Fur (Escherichia coli K12). As to the kind of experiment: competition with a labelled probe. The conditions noted are these: sci1 probe, competitor 1:2 and 1:10, Fur 20 nM; EMSA: 10 mM Tris-borate pH 7.5, 40 mM KCl, 5% glycerol, 1 mM MgCl2, 100 uM MnCl2, 2 mM DTT, 100 ug/ml BSA, 1 ug/ml salmon sperm DNA, 2 nM probe; recombinant protein.

For “CTGAAACGAACTGCTCATGGCTCTCTCCTGTGAAACCTGCATCTCAGGGGTTCCATCACCGCAGATGCCTCCCCTTGTGCACTGATTTAATTTTGATCATTATAGGACGAAGATCTGAAAAATCTCAATATAACAGATACATCGATCGATATAATGCAAATAATCAGGACTTTATTCTATGGAATGTCGCAAAATAATGAATATTCAAAGCTTATAACCATTGTTAATGTAAAAATACAGAAAATTATTCCACAAAACACTTTTGATACAGCCAGTTAACATAAACACTGTATTTTCTTGATTTCAGTCATTGAAAATCACAATGAGTAAAGTTTCAGCAGCATTGACGTGATTTCTGGAAAGCGGGAAAGATATGGAGGAAGGGCCCAACAAAATGCAATGAAAGAAGGAGTGAGGGGATTTCTAGTAAAAACAGAAGATTAACAAAACACATCAGGAGGCAGAGACTCCTGATTCAGTGCTACCACATGAAAATTTAGTTAACTGTTACCGTTCTGAAATCTATGTCAGAAGATATTCCATTACCGAAAATCAATCAGCGATACAGAGACGATCATGGTGCG (double strand) [sci1 promoter]”, the binding result in data set [1] (FeCl3, two shifts) is recorded as “binds”; in data set [2] it was “binds”.

As for “GGCAACCAGACGGTATACCTGTGGCTGCTGAACACCTCCGGGATGACGGGTTTTATCGCCTGGCTGGGGATTGCCATTAGCCACTATCGCTTCCGTCGCGGTTACGTATTGCAGGGACACGACATTAACGATCTGCCGTACCGTTCAGGTTTCTTCCCACTGGGGCCGATCTTCGCATTCATTCTGTGTCTGATTATCACTTTGGGCCAGAACTACGAAGCGTTCCTGAAAGATACTATTGACTGGGGCGGCGTAGCGGCAACGTATATTGGTATCCCGCTGTTCCTGATTATTTGGTTCGGCTACAAGCTGATTAAAGGAACTCACTTCGTACGCTACAGCGAAATGAAGTTCCCGCAGAACGATAAGAAATAAGTTTCCTCCCTTCCTTGCTAAGCCCTCTCAACCGAGAGGGCTTTTTCAATTCCATTTCCCTGACAAATCATGCGGATATAAAATTTAACATTTGGATTGATAATTGTTATCGTTTGCATTATCGTTACGCCGCAATCAAAAAAGGCTGACAAATCAGAGGCTGTTCCGGCTTTCTGGGATGATCACCTGCATAAAAAATAAGTCCACCGCGATGCTGCCGTACGC (double strand) [cir promoter]”, the binding result in data set [1] (metal-dependent, Fur 5 nM) is “binds”. As to “GGCAACCAGACGGTATACCTGTGGCTGCTGAACACCTCCGGGATGACGGGTTTTATCGCCTGGCTGGGGATTGCCATTAGCCACTATCGCTTCCGTCGCGGTTACGTATTGCAGGGACACGACATTAACGATCTGCCGTACCGTTCAGGTTTCTTCCCACTGGGGCCGATCTTCGCATTCATTCTGTGTCTGATTATCACTTTGGGCCAGAACTACGAAGCGTTCCTGAAAGATACTATTGACTGGGGCGGCGTAGCGGCAACGTATATTGGTATCCCGCTGTTCCTGATTATTTGGTTCGGCTACAAGCTGATTAAAGGAACTCACTTCGTACGCTACAGCGAAATGAAGTTCCCGCAGAACGATAAGAAATAAGTTTCCTCCCTTCCTTGCTAAGCCCTCTCAACCGAGAGGGCTTTTTCAATTCCATTTCCCTGACAAATCATGCGGATATAAAATTTAACATTTGGATTGATAATTGTTATCGTTTGCATTATCGTTACGCCGCAATCAAAAAAGGCTGACAAATCAGAGGCTGTTCCGGCTTTCTGGGATGATCACCTGCATAAAAAATAAGTCCACCGCGATGCTGCCGTACGC (double strand) [me-cir promoter]”, the binding result in data set [1] (methylation had no effect, Fur 20 nM, N6-methyladenine at GATC sites (Dam)) is “binds”. In the case of “TATGCCGGATAATGATAATCATTATCTATGCCG (double strand) [Fur consensus competitor]”, the binding result in data set [3] was “binds”.
